Measured values from several laboratories, pooled; numbers as filed in NIAID ChemDB.

All rows: tests on isolated targets; agent: HIV-1; protein: Integrase; measure: IC50

An empty or dashed field is not shown.

compound | read by | changes | strain | value
O=C(/C=C/c1ccc(O)c(O)c1)Nc1cccc2c(S(=O)(=O)Nc3ccc(Cl)cc3)cccc12 | - | - | - | 20.4 µg/mL
O=C(Nc1ccc2c(O)c(N=Nc3ccc(Br)cc3Br)c(S(=O)(=O)O)cc2c1)Nc1ccc2c(O)c(N=Nc3ccc(Br)cc3Br)c(S(=O)(=O)O)cc2c1 | 3′ processing | - | - | 4 µM
O=C(/C=C/c1ccc(O)c(O)c1)Oc1cccc2c(N=C=S)cccc12 | 3′ processing | C56S | - | 20 µM
CC(=O)N(C)c1c2c(c(O)c(=O)n1C)C(=O)N(Cc1ccc(F)cc1)CC2 | strand transfer | - | - | <1 µM
O=C1c2c(O)c(=O)c(-c3nccs3)cn2CCN1CCCc1cccc(Cl)c1F | ELISA | - | - | 0.01–0.1 µM
COc1ccc(CCNC(=O)c2cc3cc4c(cc3[nH]2)OCO4)cc1OC | 3′ processing | - | - | >100 µM
O=C(/C=C/c1ccccc1)OCCc1ccc(N=C=S)cc1 | 3′ processing | C56S | - | >100 µM
O=c1c(-c2nn[nH]n2)cn2ccn(Cc3cccc(Cl)c3)c(=O)c2c1O | ELISA | - | - | 0.01–0.1 µM
CC(=O)Oc1ccc(/C=C/C(=O)Nc2cccc3c(S(=O)(=O)NCCc4ccc(F)cc4)cccc23)cc1OC(C)=O | - | - | - | 24.6 µg/mL
O=C1c2c(O)c(=O)ccn2CCN1Cc1ccccc1Cl | ELISA | - | - | 0.1–1 µM
O=C(O)C(=O)c1c(O)n(-c2ccccc2)c2ccccc12 | strand transfer | - | - | 660 µM
[N-]=[N+]=NC[C@H]1O[C@@H](n2cnc3c(N)ncnc32)[C@H](O)[C@@H]1CC(=O)O | 3′ processing | - | NL4-3 | >10 µM
O=C(NCCCNC(=O)c1cc2cc3c(cc2[nH]1)OCO3)c1cc2cc3c(cc2[nH]1)OCO3 | 3′ processing | - | - | >100 µM
COc1cc(C(=O)O)ccc1N=Nc1c(S(=O)(=O)O)cc2cc(NC(=O)Nc3ccc4c(O)c(N=Nc5ccc(C(=O)O)cc5OC)c(S(=O)(=O)O)cc4c3)ccc2c1O | strand transfer | - | - | 0.7 µM
O=C(/C=C(\O)c1cccc(OCc2ccccc2)c1)C(=O)NC1CCC(NC(=O)C(=O)/C=C(\O)c2cccc(OCc3ccccc3)c2)CC1 | strand transfer | - | - | 7 µM
CC(=O)Oc1ccc(/C=C/C(=O)Nc2cccc3c(S(=O)(=O)NCCc4ccc(C)cc4)cccc23)cc1OC(C)=O | - | - | - | >100 µg/mL
CN(CCC(c1ccc(F)cc1)c1ccc(F)cc1)C(=O)/C=C(\O)C(=O)O | strand transfer | - | - | <70 µM
O=C(Nc1ccc2c(O)c(N=Nc3ccc(C(=O)O)cc3)c(S(=O)(=O)O)cc2c1)C(=O)Nc1ccc2c(O)c(N=Nc3ccc(C(=O)O)cc3)c(S(=O)(=O)O)cc2c1 | 3′ processing | - | - | 3 µM
CC(C)C(=O)c1cc(=O)c(O)c2n1CCN(Cc1ccc(Cl)c(Cl)c1)C2=O | ELISA | - | - | <0.01 µM
O=C(NCCCCCCNC(=O)c1cc2cc(O)c(O)cc2[nH]1)c1cc2cc(O)c(O)cc2[nH]1 | 3′ processing | - | - | 46 µM
Cc1cc2c(c3c1[nH]c1cc(F)c(O)cc13)C(=O)N(CCN(C)C)C2=O | strand transfer | - | - | >100 µM
O=C(/C=C/c1ccc(O)c(O)c1)Nc1cccc2c(S(=O)(=O)NCc3ccccc3)cccc12 | - | - | - | 8.6 µg/mL
CC(C)(C)NS(=O)(=O)c1ccccc1-c1cccc(C(=O)Nc2ccc(CCC(=O)O)cc2)c1 | strand transfer / fluorescence | - | - | 0.995 µM
O=C1c2c(O)c(=O)n(CC3CCCN4CCCCC34)c(=O)n2CCN1Cc1ccc(F)cc1 | strand transfer | - | - | <10 µM
CCN(CC)C(=O)c1[nH]c(=O)c(O)c2c1CCN(Cc1ccc(F)cc1)C2=O | strand transfer | - | - | <1 µM
COC(=O)C(=O)/C=C(\O)c1ccccc1F | 3′ processing | - | - | >100 µM
O=C(O)c1cc2cc(O)c(O)cc2[nH]1 | 3′ processing | - | - | 6.5 µM
CCN(CC)C(=O)c1c2c(c(O)c(=O)n1C)C(=O)N(Cc1ccc(F)cc1)CC2 | strand transfer | - | - | <1 µM
Cc1cc2c(c3c4ccccc4n(C)c13)C(=O)N(CCN(C)C)C2=O | strand transfer | - | - | >100 µM
O=C(O)/C(O)=C/C(=O)N(CCCc1ccccc1F)Cc1ccc(F)cc1 | strand transfer | - | - | <70 µM
COc1cc2[nH]c3ccc4c(c3c2cc1OC)C(=O)N(CCN(C)C)C4=O | strand transfer | - | - | >100 µM
O=c1ccn2ccn(Cc3cccc(Cl)c3)c(=O)c2c1O | ELISA | - | - | 0.01–0.1 µM
CCn1cc(-c2cc(C(=O)OC)no2)c2ccccc21 | strand transfer | - | - | >1000 µM
O=C(/C=C/c1ccc(O)c(O)c1)Nc1cccc2c(S(=O)(=O)Nc3ccc(Br)cc3)cccc12 | - | - | - | 19.5 µg/mL
CCCNC(=O)c1cn2ccn(Cc3cccc(Cl)c3)c(=O)c2c(O)c1=O | ELISA | - | - | <0.01 µM
O=C(O)CC(C(=O)O)c1ccc(N=Nc2c(S(=O)(=O)O)cc3cc(NC(=O)Nc4ccc5c(O)c(N=Nc6ccc(C(CC(=O)O)C(=O)O)cc6)c(S(=O)(=O)O)cc5c4)ccc3c2O)cc1 | strand transfer | - | - | 0.7 µM
CC(=O)Oc1ccc(/C=C/C(=O)Nc2cccc3c(S(=O)(=O)NCCc4ccc(Br)cc4)cccc23)cc1OC(C)=O | - | - | - | >100 µg/mL
O=C(NCc1ccc(F)cc1)c1occc(=S)c1O | 3′ processing | - | - | >100 µM
O=C(CCCCCNC(=O)/C(O)=C/C(=O)N(CCCc1ccccc1Cl)Cc1ccc(F)cc1)NS(=O)(=O)c1ccccc1 | strand transfer | - | - | <70 µM
CNc1cc2c(=O)c(C(=O)O)cn(C)c2cc1N1CCN(c2ccccn2)CC1 | - | - | - | >100 µM
O=C(/C=C(\O)C(=O)O)NCc1ccc(F)cc1 | strand transfer | - | - | <70 µM
CC(=O)/C=C/c1ccc(N=Nc2c(S(=O)(=O)O)cc3cc(NC(=O)Nc4ccc5c(O)c(N=Nc6ccc(/C=C/C(C)=O)cc6)c(S(=O)(=O)O)cc5c4)ccc3c2O)cc1 | strand transfer | - | - | 3.2 µM
Cc1cc2c(c3c1[nH]c1ccc(O)cc13)C(=O)N(CCN(C)C)C2=O | strand transfer | - | - | >100 µM
CCCC(CCCCCCCc1cc(O)cc(O)c1C(=O)OC(CCC)CCCCCCCc1cc(O)cc(O)c1)OC(C)=O | strand transfer | - | - | 31 µM
CCOC(=O)C[C@H]1[C@@H](O[Si](C)(C)C(C)(C)C)[C@H](n2cnc3c(NC(=O)Nc4ccccc4)ncnc32)O[C@@H]1CNC(=O)NC | strand transfer | - | NL4-3 | >10 µM
COC(=O)c1[nH]c(=O)c(O)c2c1CCN(Cc1ccc(F)cc1)C2=O | strand transfer | - | - | <1 µM
O=C(NCc1ccc(F)cc1)c1nc[nH]c(=O)c1O | - | - | - | 1.5 µM
CN(Cc1ccccc1)C(=O)/C=C(\O)C(=O)O | strand transfer | - | - | <70 µM
CN(C)CCCNC(=O)c1ccc2nc(-c3ccc4nc(-c5ccc(OCCOCCOCCOc6ccc(-c7nc8ccc(-c9nc%10ccc(C(=O)NCCCN(C)C)cc%10[nH]9)cc8[nH]7)cc6)cc5)[nH]c4c3)[nH]c2c1 | strand transfer | - | - | 16 µM
O=C(/C=C(\O)C(=O)O)/C=C(\O)c1ccccc1 | strand transfer | - | - | 600 µM
O=C1c2c(O)c(=O)n(C34CC5CC(CC(C5)C3)C4)c(=O)n2CCN1Cc1ccc(F)cc1 | strand transfer | - | - | <10 µM
O=C(O)CC(C(=O)O)c1ccc(N=Nc2c(S(=O)(=O)O)cc3cc(NC(=O)C(=O)Nc4ccc5c(O)c(N=Nc6ccc(C(CC(=O)O)C(=O)O)cc6)c(S(=O)(=O)O)cc5c4)ccc3c2O)cc1 | 3′ processing | - | - | 0.8 µM
CC(C)n1c(=O)c(O)c2n(c1=O)CCN(Cc1ccc(F)cc1Cl)C2=O | strand transfer | - | - | <10 µM
O=C(Nc1ccc2c(O)c(N=Nc3ccc(C(=O)O)cc3)c(S(=O)(=O)O)cc2c1)Nc1ccc2c(O)c(N=Nc3ccc(C(=O)O)cc3)c(S(=O)(=O)O)cc2c1 | 3′ processing | - | - | 0.35 µM
O=C(/C=C/c1ccc(O)c(O)c1)Oc1ccc2cccc(N=C=S)c2c1 | 3′ processing | C65S | - | 3 µM
CC(C)n1c(=O)c(O)c2n(c1=O)C(CCN(C)S(C)(=O)=O)CN(Cc1ccc(F)cc1)C2=O | strand transfer | - | - | <10 µM
O=C(/C=C/c1ccc(O)c(O)c1)OCCc1ccc(N=C=S)cc1 | 3′ processing | - | - | 4 µM
COc1cc(O)c2c(c1)C(=O)C(C)=C(c1c(OC)cc3cc4cc(C)oc(=O)c4c(O)c3c1O)C2=O | strand transfer | - | - | >100 µM
O=C(O)c1ccc(N=Nc2c(S(=O)(=O)O)cc3cc(S(=O)(=O)O)c(N=Nc4ccc(C(=O)O)cc4)c(O)c3c2O)cc1 | strand transfer | - | - | 3.5 µM
CC(C)Oc1cc(Cl)ccc1CN1CCn2cc(-c3nccs3)c(=O)c(O)c2C1=O | ELISA | - | - | 0.01–0.1 µM
CC(=O)Oc1ccc(/C=C/C(=O)Nc2cccc3c(S(=O)(=O)NCCc4cccc(C)c4C)cccc23)cc1OC(C)=O | - | - | - | >100 µg/mL
O=C(/C=C/c1ccc(O)c(O)c1)OCCc1ccc(NC(=S)SCCO)cc1 | 3′ processing | - | - | 3 µM
O=C(NCCc1ccc(O)c(O)c1)c1cc2cc(O)c(O)cc2[nH]1 | 3′ processing | - | - | 16 µM
O=C(O)c1cc(-c2ccccc2)on1 | strand transfer | - | - | 200 µM
COC(=O)c1cn2ccn(Cc3cccc(Cl)c3)c(=O)c2c(O)c1=O | ELISA | - | - | 0.01–0.1 µM
CNC(=O)NC[C@H]1O[C@@H](n2cnc3c(NC(=O)Nc4ccccc4)ncnc32)[C@@H]2OC(=O)C[C@@H]21 | strand transfer | - | NL4-3 | >10 µM

For reference, 10 entries again:

compound,read by,changes,strain,value
O=C1c2c(O)c(=O)c(-c3nccs3)cn2CCN1CCCc1cccc(Cl)c1F,ELISA,-,-,0.01–0.1 µM
Cc1cc2c(c3c4ccccc4n(C)c13)C(=O)N(CCN(C)C)C2=O,strand transfer,-,-,>100 µM
CC(=O)Oc1ccc(/C=C/C(=O)Nc2cccc3c(S(=O)(=O)NCCc4ccc(Br)cc4)cccc23)cc1OC(C)=O,-,-,-,>100 µg/mL
CCN(CC)C(=O)c1c2c(c(O)c(=O)n1C)C(=O)N(Cc1ccc(F)cc1)CC2,strand transfer,-,-,<1 µM
O=C(NCCCNC(=O)c1cc2cc3c(cc2[nH]1)OCO3)c1cc2cc3c(cc2[nH]1)OCO3,3′ processing,-,-,>100 µM
O=C(O)c1ccc(N=Nc2c(S(=O)(=O)O)cc3cc(S(=O)(=O)O)c(N=Nc4ccc(C(=O)O)cc4)c(O)c3c2O)cc1,strand transfer,-,-,3.5 µM
O=C(/C=C/c1ccc(O)c(O)c1)Nc1cccc2c(S(=O)(=O)Nc3ccc(Br)cc3)cccc12,-,-,-,19.5 µg/mL
O=C(/C=C(\O)c1cccc(OCc2ccccc2)c1)C(=O)NC1CCC(NC(=O)C(=O)/C=C(\O)c2cccc(OCc3ccccc3)c2)CC1,strand transfer,-,-,7 µM
O=C(/C=C/c1ccccc1)OCCc1ccc(N=C=S)cc1,3′ processing,C56S,-,>100 µM
O=C(O)CC(C(=O)O)c1ccc(N=Nc2c(S(=O)(=O)O)cc3cc(NC(=O)Nc4ccc5c(O)c(N=Nc6ccc(C(CC(=O)O)C(=O)O)cc6)c(S(=O)(=O)O)cc5c4)ccc3c2O)cc1,strand transfer,-,-,0.7 µM

ICn is the concentration giving n% inhibition. Conditions beyond the fields shown may differ between rows. Two numbers with a dash give a range or band.